Results of unrelated studies side by side (data: NIAID ChemDB).

All rows: host cell toxicity; cell line: MT-4; read-out: CC50

Blank or dashed fields: not listed here.

SMILES,read by,value
CC(C)(C)[Si](C)(C)OC[C@H]1O[C@@H](n2ccc(=O)[nH]c2=O)[C@H](O[Si](C)(C)C(C)(C)C)C12OS(=O)(=O)C=C2N,,3.1 µg/mL
N#Cc1ccc(NC2=NS(=O)(=O)NC(Cc3ccccc3)=C2)cc1,MTT,369 µM
Nn1cc(C(=O)O)c(=O)c2cc(O)c(N3CCN(c4ccccn4)CC3)cc21,MTT,185 µM
CCN(CC)CCCC(C)Nc1ccnc2cc(Cl)ccc12,,46.3 µM
O=C(NCc1ccc(F)c(Cl)c1F)c1cn2c(c(O)c1=O)C(=O)N1CCCO[C@]13C1CC1C[C@H]23,luminescence,20.2 µM
CCc1cn([C@H]2C[C@H](N=[N+]=[N-])[C@@H](CO)O2)c(=O)[nH]c1=O,,418 µM
C=Cn1cc(C(=O)O)c(=O)c2ccc(N3CCN(c4nc5ccccc5s4)CC3)nc21,MTT,0.44 µM
C[C@]1(Cn2cnc3c(=O)[nH]c(N)nc32)[C@H](COCP(=O)(O)O)C1(F)F,,>100 µM
Cc1c(Sc2ccccc2)n(COCc2ccccc2)c(=O)[nH]c1=O,,63 µM
CC(C)CNC1CN(C)CCn2c1nc(C(=O)NCc1ccc(F)cc1)c(O)c2=O,microscopy,>10 µM
C[C@@]1(CO)CC[C@H](c2c[nH]c3c(N)ncnc23)C1,,>100 µM
c1ccc(COC2C3COC(O3)C(OCc3ccccc3)C2OCc2ccccc2)cc1,MTT,>200 µg/mL
C[C@]1(CO)O[C@@H](n2ccc(N)nc2=O)[C@H](O)[C@@H]1O,,>100 µM
Cc1ccc2nc(-c3c(F)cccc3F)n(Cc3c(F)cccc3F)c2c1,,30.45 µM
Nc1ncnc2c1ncn2[C@@H]1O[C@H](CO)[C@H]1CO,,>30 µg/mL
COCCNC(=O)c1c(O)c2ncc(Cc3ccc(F)cc3)cc2n(C)c1=O,,>20 µM
CCC(C)Sc1nc(Cc2ccccc2)c(C)c(=O)[nH]1,,86 µM
[N-]=[N+]=N[C@H]1[C@H](n2cnc3c(N)ncnc32)O[C@@H]1CO,,>100 µg/mL
CNc1ncnc2c1ncn2[C@@H]1O[C@H](CO)C[C@@H]1N=[N+]=[N-],,106.9 µg/mL
Cn1cc(C(=O)O)c(=O)c2sc(N3CCN(c4nc5ccccc5s4)CC3)nc21,MTT,2.05 µM
[N-]=[N+]=NC[C@H]1[C@H](n2cnc3c(N)ncnc32)O[C@@H]1CO,,80 µg/mL
O=c1cc(Sc2ccccc2)n(COCCO)c(=O)[nH]1,,>500 µM
Nn1cc(C(=O)O)c(=O)c2ccc(N3CCN(c4nc5ccccc5s4)CC3)nc21,MTT,23.77 µM
S=C(NCCc1ccccc1)Nc1nccs1,,~100 µg/mL
NC1=Nn2c(nnc2-c2ccc(Cl)c(Cl)c2)SC1,MTT,2.7 µg/mL
Cn1cc(C(=O)O)c(=O)c2cc(N)c(N3CCN(c4ccccn4)CC3)cc21,MTT,2.21 µM
NS(=O)(=O)c1ccc(NC(=O)CNc2cccc(Oc3ccccc3)c2)c(Cl)c1,microscopy,>20 µM
Cc1cc(C)c(NC2=NS(=O)(=O)NC(Cc3ccc4ccccc4c3)=C2)c(C)c1,MTT,96 µM
NOCc1ccc(Cl)cc1Cl,,48.1 µg/mL
O=C1c2ccccc2N(Cc2ccccc2-c2ccccc2)S(=O)(=O)N1Cc1ccccc1,,>125 µM
S=c1[nH]nc(Cc2nc3n(n2)CCCCC3)o1,,68.78 µg/mL
Nc1ncnc2c1ncn2[C@@H]1O[C@H](CO)[C@H]1F,,>100 µg/mL
CCn1nc(CC(=O)N/N=C/c2ccccc2)nc1C,,125 µg/mL
N#Cc1csc(NC(=O)NCCc2ccccc2)n1,,~1 µg/mL
Oc1ccc(-c2nnc3sc(-c4ccco4)nn23)c(Cl)c1Cl,MTT,27.2 µg/mL
NOCc1ccccc1Cl,,73.3 µg/mL
COc1ccc(-n2c(Cc3nc4n(n3)CCCC4)n[nH]c2=S)cc1,,105.2 µg/mL
Nc1ncnc2c1ncn2[C@@H]1O[C@H](CO)[C@H]1N,,>100 µg/mL
CS(=O)(=O)c1ccc2c(c1)CCN2C(=O)COc1cc(Cl)cc(Oc2cc(Cl)cc(C#N)c2)c1,microscopy,>20 µM
C=Cn1cc(C(=O)O)c(=O)c2ccc(N3CCN(c4nccs4)CC3)nc21,MTT,34.61 µM
Clc1ccc(-c2nnc3n2N=C(c2ccccc2)CS3)cc1Cl,MTT,1.97 µg/mL
Cc1cc(C(C)(O)c2ccc(F)cc2)nc(Nc2ccc(C#N)cc2)n1,MTT,61.5 µM
NS(=O)(=O)c1ccc(NC(=O)COc2cccc(Cc3ccccc3)c2)c(Cl)c1,microscopy,>20 µM
CN1CCn2c(nc(C(=O)NCc3ccc(F)cc3)c(O)c2=O)C(N(C)C(=O)C(=O)N2CCCC2)C1,microscopy,>1 µM
Nn1c(-c2cccc(Br)c2)n[nH]c1=S,,75.4 µg/mL
COc1cc2c(cc1Cc1c(F)cccc1Cl)nc(-c1c(F)cccc1Cl)n2Cc1c(F)cccc1Cl,,127 µM
CN1C(=O)[C@]2(C[C@@H]2c2ccccc2)c2cc(Cl)ccc21,MTT,10.24 µg/mL
C[C@]1(CO)O[C@@H](n2ccc(=O)[nH]c2=O)[C@H](O)[C@@H]1O,,>100 µM
CC1(C)[C@@H](O[C@H]2O[C@H](C(=O)O)[C@@H](O)[C@H](O)[C@H]2O[C@@H]2O[C@H](C(=O)O)[C@@H](O)[C@H](O)[C@H]2O)CC[C@]2(C)[C@H]3C(=O)C=C4[C@@H]5C[C@@](C)(C(=O)O)CC[C@]5(C)CC[C@@]4(C)[C@]3(C)CC[C@@H]12,,2400 µM
Nn1cc(C(=O)O)c(=O)c2ccc(N3CCN(c4nc5ccccc5s4)CC3)cc21,MTT,>296 µM
NOCc1c(Cl)cccc1Cl,,51.9 µg/mL
CC(=O)N(Cc1ccccc1)C1CN(C)CCn2c1nc(C(=O)NCc1ccc(F)cc1)c(O)c2=O,microscopy,>1 µM
CCn1nc(Cc2n[nH]c(=S)o2)nc1C,,69.38 µg/mL
C[C@]1(Cn2cnc3c(=O)[nH]c(N)nc32)[C@@H](COCP(=O)(O)O)C1(F)F,,>100 µM
Nc1ncnc2c1ncn2[C@@H]1O[C@H](CO)[C@](O)(C(F)(F)F)[C@H]1O,,66 µM
CCn1nc(-c2ccc(Cn3ccc4ccccc43)cc2)nc1C,,0.92 µg/mL
O=C1CSc2nnc(-c3ccc(Cl)c(Cl)c3)n2N1,,35.23 µg/mL
CCC(C)Sc1nc(Cc2ccccc2C(F)(F)F)cc(=O)[nH]1,,200 µM
Cn1c(COc2ccc(Cl)c(Oc3cc(Cl)cc(C#N)c3)c2)nc2ccccc21,microscopy,>20 µM
CN(C)CC1c2nc(C(=O)NCc3ccc(F)cc3)c(O)c(=O)n2CCN1Cc1cocn1,microscopy,>10 µM
O=S1(=O)N=C(Nc2cccc(Cl)c2)C=C(Cc2cccc3ccccc23)N1,MTT,161 µM
Nc1ncnc2c1ncn2[C@H]1C[C@@H](CO)O1,,8 µg/mL
Clc1ccc(-c2nnc3sc(-c4cnccn4)nn23)cc1Cl,,2.11 µg/mL
CC(=O)N1CCn2c(nc(C(=O)NCc3ccc(F)cc3)c(O)c2=O)C(N(C)C(=O)C(=O)N(C)C)C1,microscopy,>1 µM
C[C@H]1CN2C(=O)c3c(O)c(=O)c(C(=O)NCc4ccc(F)c(Cl)c4F)cn3[C@@H]3CCC[C@@]32O1,luminescence,3.9 µM
Cn1cc(C(=O)O)c(=O)c2ccc(N3CCN(c4ccccn4)CC3)nc21,MTT,26.33 µM
O=C1c2ccccc2N(CC2CCCCC2)S(=O)(=O)N1Cc1ccccc1,,>125 µM
COc1ccc(NC2=NS(=O)(=O)NC(Cc3ccc4ccccc4c3)=C2)cc1,MTT,165 µM
Cc1ccc2c(c1)nc(-c1c(F)cccc1F)n2Cc1c(F)cccc1F,,31.95 µM
NOCc1c(F)cccc1Cl,,62.3 µg/mL
Oc1ccc(-c2nnc3sc(-c4cnccn4)nn23)c(Cl)c1Cl,MTT,2.11 µg/mL
[N-]=[N+]=N[C@H]1C[C@H](n2cc(Br)c(=O)[nH]c2=O)O[C@@H]1CO,,141 µM
Cc1c(C(=O)O)c(=O)c2cc(N)c(N3CCN(c4ccccn4)CC3)cc2n1C,MTT,177 µM
O=C(NCCc1ccccc1)Nc1nc2ccccc2s1,,>100 µg/mL
Nc1cc2c(=O)c(C(=O)O)csc2cc1N1CCN(c2ccccn2)CC1,MTT,138 µM
CCCCCCCCCCCCCC(=O)OC[C@H]1O[C@@H](n2cnc3c(N)ncnc32)[C@@H]1CO,,4 µg/mL

CCn: concentration that lowers growth or viability of the cells by n%. Conditions beyond the fields shown may differ between rows.